According to patent US11458198B2, “HPV epitopes targeted by T cells infiltrating cervical malignancies for use in vaccines” (Academisch Ziekenhuis Leiden H.O.D.N. LUMC, priority 2007, dated 2022):

Tested on: HPV-specific CD4+ and CD8+ T cells
Experiment: HLA restriction and minimal epitope (blocking antibodies, partially HLA matched APC, IFNγ ELISPOT)
Assay type: cell-based, human
Conditions: tumor-infiltrating CD8+ T cells, discussion
Protocol: MHC class II blocking experiments were performed as reported before using murine monoclonal antibodies against HLA-DR (B8.11.2), HLA-DQ (SPV.L3) and HLA-DP (B7/21) (van der Burg et al. 1999). Peptide-pulsed APC were incubated with anti-MHC class II antibodies for 2 hours prior to the addition of T cells.
Enumeration of IFNγ producing T cells as measured by intracellular cytokine staining was performed as described earlier (de Jong et al. 2005). Briefly, APC were loaded with cognate peptide or recombinant protein and incubated with T cell cultures. After 1 hour of incubation 10 μg/ml Brefeldin A (Sigma) was added and incubated overnight. Hereafter the cells were fixed with 4% paraformaldehyde (Sigma) and permeabilized with 0.1% Saponin. The samples were subsequently stained with CD4-APC, CD8-PerCP and IFNγ-PE and analyzed by flow cytometry. The minimal peptide recognized by CD8 T cells was analysed by IFNγ ELISPOT (van der Burg et al. 2001, Welters et al. 2006, de Jong et al. 2002). CD8 T cell lines were seeded in triplicate wells at a density of 2×104 on a Multiscreen 96-well plate (Millipore, Etten-Leur, The Netherlands) coated with an IFNγ catch antibody (Mabtech. Nacha, Sweden). The microcultures were stimulated with 5 μg/ml 10-mer peptides and incubated overnight. […] The number of spots was analysed on a fully automated computer assisted video imaging system (BIOSYS). […]

Substance | HLA restriction of CD8+ T cells recognizing the epitope
HPV16 E7.11-20: known HLA-A*0201-restricted CD8 epitope of HPV16 E7 (Evans et al. 1997, Oerke et al. 2005) [reference compound] | HLA-A*0201
HPV16E6.52-61: amino acids 52-61 of HPV16 E6 protein (FAFRDLCIVY; Human papillomavirus type 16) | HLA-B57
